Compound potency records, mixed from different reports. Data source: NIAID ChemDB in PubChem.

Shared fields: tests in culture; organism: Herpes simplex virus 1; cell line: VERO; measure: EC50

Conditions beyond the fields shown may differ between rows. ECn is the concentration giving n% inhibition of infection, replication or growth. An empty or dashed field is not shown. Two numbers with a dash give a range or band.

compound	strain	read by	value
Cc1ccc2c(c1)C(=O)C(=O)N2[C@@H]1O[C@H](COCc2ccccc2)[C@@H](OCc2ccccc2)[C@H]1OCc1ccccc1	-	virus yield	>50 µM
O=C(Nc1cc(F)ccc1N1CCCCCC1)c1ccncc1	F	plaque count	2.82 µM
C/C(=C\CCC(C)[C@H]1CC[C@@]2(C)C3=CCC4C(C)(C)[C@@H](O)CC[C@]4(C)C3=CC[C@]12C)CO	-	-	68 µM
Cc1cc([C@@H](O)[C@@H](O)CO)co1	HF	plaque count	1.6 µM
Nc1nccc2c1ncn2[C@H]1C[C@H](O)[C@@H](CO)O1	-	plaque count	>397 µM
O=C1Nc2ccc(Cl)cc2C1=O	-	virus yield	>50 µM
CC1(C)C[C@H]2[C@H](OC(=O)[C@H](O)[C@@H](NC(=O)c3ccccc3)c3ccccc3)C3=C(C[C@](C)(O)[C@H]2C1)C(=O)OC3	McIntyre	cytopathic effect	17.3 µg/mL
OC[C@H]1O[C@@H](n2nnc3ccnc(Cl)c32)C[C@@H]1O	-	plaque count	>368 µM
O=C(O)CP(=O)(O)O	ICI	plaque count	57.5 µM
NC1=NC2C(C=CN2CC(CO)CCO)C(=O)N1	F	plaque count	0.08 µM
CC[C@@H](C(C)C)[C@@H](O)[C@H](O)[C@@H](C)[C@H]1CC[C@H]2[C@@H]3CC(=O)[C@@]4(O)C[C@@H](Br)CC[C@]4(C)[C@H]3CC[C@]12C	F	plaque count	17.7 µM
Nc1nc2c(ncn2CCCCO)c(=O)[nH]1	C915 TK-	plaque count	350 µM
Cc1nc(N(C)C(=O)Cc2ccc(-c3ccccn3)cc2)sc1S(N)(=O)=O	KD1	plaque count	0.03 µM
Nc1nc2c(ncn2COC(CO)CO)c(=O)[nH]1	-	plaque count	0.25 µM
Nc1nccc2c1nnn2[C@@H]1O[C@H](CO)[C@@H](O)[C@H]1O	-	plaque count	>398 µM
Nc1ncnc2c1ncn2[C@@H]1O[C@H](COP(=O)(O)CC(=O)O)[C@@H](O)[C@@H]1O	HFEM	plaque count	>2000 µM
Nc1nc2c(ncn2COCOCP(=O)(O)O)c(=O)[nH]1	-	cytopathic effect	2.6 µg/mL
CC[C@@H](C(C)C)[C@@H](O)[C@H](O)[C@@H](C)[C@H]1CC[C@H]2[C@@H]3CC(=O)[C@@]4(O)C[C@@H](OC(C)=O)CC[C@]4(C)[C@H]3CC[C@]12C	B2006 (TK-)	plaque count	94.2 µM
O=C(O[C@@H]1Cc2c(O)cc(O)cc2O[C@@H]1c1cc(O)c(O)c(O)c1)c1cc(O)c(O)c(O)c1	KOS	plaque count	38.6 µM
CC[C@@H](C(C)C)[C@H](O)[C@@H](O)[C@@H](C)[C@H]1CC[C@H]2[C@@H]3CC(=O)[C@@]4(O)C[C@@H](Br)CC[C@]4(C)[C@H]3CC[C@]12C	B2006 (TK-)	plaque count	53.8 µM
Nc1ncnc2c1ncn2[C@@H]1O[C@H](CO)[C@@H](O)[C@@H]1O	KOS	cytopathic effect	70 µg/mL
CN1CC[C@H](c2c(O)cc(O)c3c(=O)cc(-c4ccccc4Cl)oc23)[C@H](O)C1	F	plaque count	0.034 µM
CC[C@@H](C(C)C)[C@@H](O)[C@H](O)[C@@H](C)[C@H]1CC[C@H]2[C@@H]3CC(=O)[C@H]4C[C@H](O)[C@H](O)C[C@]4(C)[C@H]3CC[C@]12C	F	plaque count	41.3 µM
C#Cc1cn([C@H]2C[C@H](O)[C@@H](COP(=O)(O)CC(=O)O)O2)c(=O)[nH]c1=O	HFEM	plaque count	>200 µM
Cc1cn(C[C@H]2C[C@H]2CO)c(=O)[nH]c1=O	-	-	>50 µM
Nc1nc2c(ncn2COCCO)c(=O)[nH]1	C915 TK-	plaque count	30 µM
CCN(CC)CCCOc1c2ccoc2cc2oc(=O)ccc12	Clinical isolate	virus yield	3.6 µg/mL
Nc1nc2c(ncn2[C@@H]2C[C@H](CO)C[C@H]2O)c(=O)[nH]1	377	cytopathic effect	67–170 µg/mL
Nc1nc2c(ncn2C[C@H]2C[C@H]2CO)c(=O)[nH]1	-	-	>50 µM
Nc1nccc2nn([C@H]3C[C@H](O)[C@@H](CO)O3)nc12	-	plaque count	>396 µM
O=C1Nc2ccc(I)cc2C1=O	-	virus yield	>50 µM
O=c1[nH]cnc2c1ncn2C[C@H]1C[C@H]1[C@H](O)CO	-	-	>50 µM
O=C1C(=O)N([C@@H]2O[C@H](COCc3ccccc3)[C@@H](OCc3ccccc3)[C@H]2OCc2ccccc2)c2ccccc21	-	virus yield	<50 µM
Nc1nc2c(ncn2COCCO)c(=O)[nH]1	KOS	cytopathic effect	0.9 µg/mL
[N-]=[N+]=NC(CBr)c1cn(CCC(CO)CO)c(=O)[nH]c1=O	KOS (TK+)	plaque count	>67 µM
CC1(C)C[C@H]2C=C(COC(=O)[C@H](O)[C@@H](NC(=O)c3ccccc3)c3ccccc3)[C@@]3(C=O)C[C@]3(C)[C@H]2C1	McIntyre	cytopathic effect	7.8 µg/mL
[N-]=[N+]=N[C@@H]1[C@H](O)[C@@H](CO)C[C@H]1n1ccc(N)nc1=O	-	plaque count	>400 µM
O=C(Nc1cc(F)ccc1N1CCCCC1)c1ccncc1	F	plaque count	2.14 µM
CC[C@@H](C(C)C)[C@H](O)[C@@H](O)[C@@H](C)[C@H]1CC[C@H]2[C@@H]3CC(=O)[C@H]4C[C@@H](OC(C)=O)CC[C@]4(C)[C@H]3CC[C@]12C	B2006 (TK-)	plaque count	>39.6 µM
Nc1ccn([C@@H]2O[C@H](CO)[C@@H](O)[C@@H]2O)c(=O)n1	ICI	plaque count	0.2 µM
Nc1ncnc2c1nnn2[C@H]1C[C@H](O)[C@@H](CO)O1	-	plaque count	>396 µM
Nc1nc(N)c2ncn(COCCO)c2n1	ICI	plaque count	10.5 µM
Nc1nc2c(ncn2COC(CO)CO)c(=O)[nH]1	-	cytopathic effect	0.55 µg/mL
O=c1[nH]c(=O)n([C@H]2C[C@H](O)[C@@H](CO)O2)cc1C(F)(F)F	ICI	plaque count	0.1 µM
CC[C@@H](C(C)C)[C@@H](O)[C@H](O)[C@@H](C)[C@H]1CC[C@H]2[C@@H]3CC(=O)[C@H]4C[C@@H](OC(C)=O)CC[C@]4(C)[C@H]3CC[C@]12C	F	plaque count	22.4 µM
CC1(C)C[C@H]2[C@H](OC(=O)[C@H](O)[C@@H](NC(=O)c3ccccc3)c3ccccc3)C34COC(=O)C3(C4)C[C@](C)(O)[C@H]2C1	McIntyre	cytopathic effect	21.9 µg/mL
O=c1[nH]c(=O)n([C@H]2C[C@H](O)[C@@H](CO)O2)cc1I	KOS	cytopathic effect	0.7 µg/mL

The last 2 rows once more:

compound | strain | read by | value
CC1(C)C[C@H]2[C@H](OC(=O)[C@H](O)[C@@H](NC(=O)c3ccccc3)c3ccccc3)C34COC(=O)C3(C4)C[C@](C)(O)[C@H]2C1 | McIntyre | cytopathic effect | 21.9 µg/mL
O=c1[nH]c(=O)n([C@H]2C[C@H](O)[C@@H](CO)O2)cc1I | KOS | cytopathic effect | 0.7 µg/mL